# Sequence variants of PSTVd loop 27 after infection

From the data files of Wu et al. 2024, doi:10.1371/journal.ppat.1012142.

Region: loop 27 of PSTVd (intermediate strain), 5' to 3', with the closing base pair. Wild type: UUUUCA. Varied positions (N): UNNNNA.

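A pool of all variants was put on leaves of three Nicotiana benthamiana plants. Progeny were sequenced from the inoculated region (day 5), the margin of the inoculated leaf (day 10) and systemic leaves (day 12).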

Numbers give reads per thousand; 0 = not seen among the reads, higher = more abundant.
Each value is the mean of three plants.
"Pool" is the share in the plasmid pool used as inoculum, on the same scale.
The inoculated region was read from the minus strand, the other sites from the plus strand.
IR is the inoculated region, LM the leaf margin, Sys the systemic leaves.
Sequences that differ at fixed positions probably stem from PCR or sequencing errors, and defective variants can be carried along by functional ones.
For reference, wild type rose from 39.4 per thousand in the pool to 155, 124, 130 (inoculated region), 823, 907, 920 (leaf margin) and 805, 787, 933 (systemic leaves).
With 30,013-65,426 reads a sample, very low values are single reads.

| # | sequence | pool | IR | LM | Sys |
|---|---|---|---|---|---|
| 1 | AAGCUA | 0.0136 | 0 | 0 | 0 |
| 2 | AAGUCA | 0.0136 | 0.00546 | 0 | 0 |
| 3 | ACAUCA | 0.0136 | 0 | 0 | 0 |
| 4 | AUCUAA | 0.0136 | 0.00630 | 0 | 0 |
| 5 | CAAGCA | 0.0136 | 0 | 0 | 0 |
| 6 | CAGUUA | 0.0407 | 0 | 0 | 0 |
| 7 | CGAAUA | 0.0136 | 0 | 0 | 0 |
| 8 | GAGAGA | 0.0136 | 0 | 0 | 0 |
| 9 | GGCAUA | 0.0136 | 0 | 0 | 0 |
| 10 | GUUGCA | 0.0136 | 0 | 0 | 0 |
| 11 | GUUUUA | 0.0136 | 0 | 0 | 0 |
| 12 | UAAAAA | 9.75 | 8.09 | 1.41 | 0.0977 |
| 13 | UAAACA | 1.86 | 1.68 | 0.460 | 0.0226 |
| 14 | UAACCA | 2.31 | 0.687 | 0.125 | 0.0719 |
| 15 | UAAGAA | 3.00 | 1.75 | 0.0797 | 0.0447 |
| 16 | UAAUUA | 6.75 | 2.21 | 0.223 | 0.128 |
| 17 | UAGCUA | 4.18 | 1.81 | 0.110 | 0.0490 |
| 18 | UAUACA | 0.0679 | 0.0647 | 0.112 | 0.0365 |
| 19 | UAUUGA | 3.46 | 3.51 | 0.516 | 0.0870 |
| 20 | UCACUA | 1.02 | 0.810 | 0.116 | 0 |
| 21 | UCAGUA | 5.94 | 1.52 | 0.125 | 0.193 |
| 22 | UCAUCA | 1.09 | 0.564 | 0.143 | 0.0170 |
| 23 | UCAUUA | 4.43 | 2.35 | 0.307 | 0.0292 |
| 24 | UCCACA | 0.557 | 0.553 | 0.0197 | 0.0301 |
| 25 | UCCCAA | 3.54 | 3.11 | 0.136 | 0.0158 |
| 26 | UCCGAA | 1.89 | 0.734 | 0.0111 | 0.0131 |
| 27 | UCGACA | 1.67 | 2.88 | 0.191 | 0.0444 |
| 28 | UCGCAA | 3.46 | 1.38 | 0.0837 | 0.0170 |
| 29 | UCGCCA | 2.40 | 0.526 | 0.182 | 0.0185 |
| 30 | UCGUCA | 1.37 | 1.86 | 0.0288 | 0.0105 |
| 31 | UCUAUA | 2.65 | 0.746 | 0.0697 | 0.0182 |
| 32 | UCUGAA | 4.93 | 5.30 | 0.202 | 0.0600 |
| 33 | UGACAA | 3.15 | 2.08 | 0.224 | 0.0153 |
| 34 | UGACCA | 2.04 | 0.694 | 0.0333 | 0.0355 |
| 35 | UGCCGA | 1.02 | 1.17 | 0.0302 | 0 |
| 36 | UGCUUA | 2.89 | 2.15 | 0.0716 | 0.0400 |
| 37 | UGGAUA | 5.60 | 8.45 | 0.965 | 0.0790 |
| 38 | UGGCUA | 5.12 | 3.00 | 0.395 | 0.0119 |
| 39 | UGGGCA | 5.45 | 1.29 | 0.0802 | 0.0607 |
| 40 | UGGGGA | 7.59 | 2.53 | 0.221 | 0.0355 |
| 41 | UGUACA | 0.842 | 1.60 | 0.289 | 0.0758 |
| 42 | UGUCAA | 3.04 | 4.55 | 0.234 | 0.126 |
| 43 | UGUGGA | 6.66 | 4.24 | 0.461 | 0.0859 |
| 44 | UUAAAA | 3.83 | 1.36 | 0.403 | 0.0496 |
| 45 | UUAACA | 0.0272 | 0.0693 | 0.0884 | 0.0182 |
| 46 | UUACCC | 0.0272 | 0 | 0 | 0 |
| 47 | UUAGUA | 6.27 | 4.93 | 0.690 | 0.0420 |
| 48 | UUCAAA | 3.29 | 1.39 | 0.0676 | 0.0248 |
| 49 | UUCCUA | 3.56 | 1.37 | 0.138 | 0.0102 |
| 50 | UUCGGA | 2.27 | 1.74 | 0.424 | 0.0626 |
| 51 | UUGGAA | 9.78 | 8.65 | 1.45 | 0.171 |
| 52 | UUGGUA | 9.11 | 11.9 | 2.15 | 0.183 |
| 53 | UUGGUG | 0.0136 | 0 | 0 | 0 |
| 54 | UUUACC | 0.0136 | 0 | 0 | 0 |
| 55 | UUUGAA | 5.76 | 6.20 | 1.06 | 0.188 |
| 56 | UUUGCA | 9.03 | 11.6 | 2.26 | 1.12 |
| 57 | UUUUCC | 0.0543 | 0.0281 | 0.862 | 1.78 |